Results of unrelated studies side by side (data: NIAID ChemDB).

Common to all: growth or infection tests; agent: Mycobacterium tuberculosis

MIC bound comes from a single tested concentration. Conditions beyond the fields shown may differ between rows. MIC50, MIC90 and the like: level of inhibition, or share of isolates inhibited. Percent inhibition refers to the dose given; in toxicity tests it is the harm to the cells. ECn: concentration that inhibits the pathogen or its effect by n%. An empty or dashed field is not shown. a–b is a range or a potency band.

compound	strain or isolate	tested at	mutations	setting	cell line	read-out	read by	value
O=C1c2ccncc2C(=O)c2c1[nH]c1ccccc21	H37Rv					MIC bound	resazurin	<6.25 µg/mL
CCOC(=O)c1ccc2nc(-c3cncc(-c4ccc(F)cc4)c3)[nH]c2c1	H37Rv					MIC	resazurin / fluorescence	>100 µM
CCN(CC)CCOc1ccc(NC(=S)Nc2ccc(OCC(C)C)cc2)cc1	Ravenel #226					MIC		16.6 µg/mL
CSC(=S)NN=C1CCCCC1	H37Rv					MIC	BACTEC	8 µg/mL
CCOC(=O)c1[nH]c2c(OC)cccc2c(=O)c1C	H37Rv					MIC		>100 µg/mL
CSc1ccc(C(=O)CCC(=O)NC[C@H]2CN(c3ccc(N4CCCC4)c(F)c3)C(=O)O2)cc1	10 clinical isolates resistant					MIC		>16 µg/mL
Cn1cc(NC(=O)Nc2cc(C(=O)O)n(C)c2)cc1C(=O)O	H37Rv					MIC bound	resazurin	>6.25 µg/mL
N[C@@H]1CONC1=O	H37Rv					EC90	resazurin / fluorescence	28.01 µM
NC(=O)c1cnccn1	DOL niacin-positive					MIC		32 µg/mL
CN[C@@H]1[C@H](O[C@H]2[C@H](O[C@H]3[C@H](O)[C@@H](O)[C@H](N=C(N)N)[C@@H](O)[C@@H]3N=C(N)N)O[C@@H](C)[C@]2(O)C=O)O[C@@H](CO)[C@H](O)[C@H]1O	H37RV #80					MIC		4 µg/mL
CO[C@H]1/C=C/O[C@@]2(C)Oc3c(C)c(O)c4c(O)c(c(/C=N/N5CCN(C)CC5)c(O)c4c3C2=O)NC(=O)/C(C)=C\C=C\[C@H](C)[C@H](O)[C@@H](C)[C@@H](O)[C@@H](C)[C@H](OC(C)=O)[C@@H]1C	Praha 4					MIC		>9.7 µM
CCOC(=O)c1ccc2c(c1)nc(-c1ccc(Br)cc1)n2CCN1CCCC1=O	H37Rv					EC50	resazurin / fluorescence	>100 µM
Cc1ccc2c(c1)N(CC(O)CO)CCC2	H37Rv					MIC		>100 µg/mL
CCCCc1ccc(Nc2c(C#N)[n+]([O-])c3cc(Cl)ccc3[n+]2[O-])cc1	H37Rv	12.5 µg/mL				inhibition		99%
C=C(NC(CC(C)C)C(=O)N1CCCC1C(=O)O)C1CCCN1C(=O)C(NC(=O)C(C)NC(=O)C(NC(=O)C(NC=O)C(C)CC)C(C)O)C(C)C	H37Rv					MIC	agar	4 µg/mL
O=C(CN1C(=O)CC(NC(=O)OCc2ccccc2)C1=O)NCC(=O)Oc1ccc([N+](=O)[O-])cc1	H37Rv					MIC	BACTEC	≥12.8 µg/mL
CCOC(=O)c1ccc2c(c1)nc(-c1ccc(Cl)cc1)n2CCN1CCCOC1	H37Rv					EC50	resazurin / fluorescence	44.75 µM
CN[C@@H]1[C@H](O)[C@H](NC)[C@H]2O[C@@]3(O)C(=O)C[C@@H](C)O[C@H]3O[C@@H]2[C@H]1O	H37Rv					MIC	BACTEC	≥12.5 µg/mL
O=C(Nc1ccccc1)c1cccc(S(=O)(=O)Nc2ccc3[nH]c(=S)[nH]c3c2)c1	H37Rv					MIC		>100 µg/mL
O=[N+]([O-])[O][Ga]([O][N+](=O)[O-])[O][N+](=O)[O-]	H37Ra	375 µM		inside macrophages		inhibition		90%
Nc1cc(N)c(O)cc1O	H37Rv					MIC		>100 µg/mL
CCCCCCCCOc1cccc(NC(=O)OCC[NH+]2CCCC2)c1	My 331/88					MIC		16 µM
Nc1ccccc1S(N)(=O)=O	H37Rv					MIC		>100 µg/mL
C=C1C(=O)C23C(O)CC4(C)C5CCCC4(C(O)OC5)C2C(OC(C)=O)CC1C3O	H37Rv					MIC	BACTEC	≥12.5 µg/mL
Cc1ccc(C(=O)c2ccccc2C(=O)O)cc1[N+](=O)[O-]	H37Rv					MIC		>100 µg/mL
CCOc1ccc(NC(=S)Nc2ccc(OCC(C)C)cc2)cc1	H37RV #80					MIC		2 µg/mL
NS(=O)(=O)c1ccc(NC(=O)C(=O)C(O)C(O)C(O)CO)cc1	H37Rv					MIC bound	resazurin	>6.25 µg/mL
Nc1ccc(Cc2ccc(N)c(N)c2)cc1N	H37Rv					MIC		100 µg/mL
Cc1ccc(C)c(Sc2ncccn2)c1	H37Ra					MIC		>12.8 µg/mL
CO[C@H]1/C=C/O[C@@]2(C)Oc3c(C)c(O)c4c(O)c(c5c(c4c3C2=O)NC2(CCN(CC(C)C)CC2)N=5)=NC(=O)/C(C)=C\C=C\[C@H](C)[C@H](O)[C@@H](C)[C@@H](O)[C@@H](C)[C@H](OC(C)=O)[C@@H]1C	Strain 122 (D516Y)					MIC		0.25 µg/mL
NNC(=O)c1ccncc1	Clinical isolate 2					MIC		>100 µg/mL
CC[C@H]1OC(=O)[C@H](C)[C@@H](O[C@H]2C[C@@](C)(OC)[C@@H](O)[C@H](C)O2)[C@H](C)[C@@H](O[C@@H]2O[C@H](C)C[C@H](N(C)C)[C@H]2O)[C@](C)(OC)C[C@@H](C)C(=O)[C@H](C)[C@@H](O)[C@]1(C)O	89996					MIC		>4 µg/mL
COc1ccc2c(c1)[n+](=O)c(C(=O)C/C(=N\OCCCc1ccccc1)C(=O)NC13CC4CC(CC(C4)C1)C3)c(C)n2[O-]	H37Rv					MIC bound	BACTEC	>12.5 µg/mL
CCOC(=O)c1ccc2nc(-c3ccc(O)c(OC)c3)[nH]c2c1	H37Rv					EC90	resazurin / fluorescence	>100 µM
O=c1nc2sc3ccccc3c(=O)n2[nH]1	H37Rv					MIC bound	resazurin	>6.25 µg/mL
CN[C@@H]1[C@H](O[C@H]2[C@H](O[C@H]3[C@H](O)[C@@H](O)[C@H](N=C(N)N)[C@@H](O)[C@@H]3N=C(N)N)O[C@@H](C)[C@]2(O)C=O)O[C@@H](CO)[C@H](O)[C@H]1O	Clinical isolate 9					MIC		100 µg/mL
NC(=O)Cc1cccs1	H37Rv					MIC		>100 µg/mL
CCCCSc1nc(Cl)nc2nc[nH]c12	H37Rv					MIC90		>6.25 µg/mL
O=C1c2ccccc2C(=O)n2nc3ccccc3c21	H37Rv	6.25 µg/mL				inhibition	resazurin	12%
CC(=O)Nc1ccc(C(=O)CCC(=O)NC[C@H]2CN(c3ccc(-n4cncn4)c(F)c3)C(=O)O2)cc1	10 clinical isolates resistant					MIC		2–4 µg/mL
CCOc1cccc(NC(=O)OCC[NH+]2CCCC2)c1	My 331/88					MIC		>1000 µM
COc1ccccc1Sc1ccncc1	H37Ra					MIC		>12.8 µg/mL
c1ccc([Si]2(c3ccccc3)[Si](c3ccccc3)(c3ccccc3)[Si](c3ccccc3)(c3ccccc3)[Si]2(c2ccccc2)c2ccccc2)cc1	H37Rv					MIC	BACTEC	≥12.5 µg/mL
O=C(O)/C=C/C(=O)C1OC1C(=O)O	H37Rv					MIC		>100 µg/mL
CCCCCCCOc1ccccc1NC(=O)OCC[NH+]1CCCC1	My 331/88					MIC		32 µM
CCOc1ncn(-c2ccc(NC(=S)Nc3cnccn3)cc2)n1	H37Rv					MIC bound	BACTEC	>12.5 µg/mL
COC(=O)c1ccc2ccccc2c1O	H37Rv					MIC		>100 µg/mL
O=C1C=C(Nc2ccccc2)c2ccccc2C1=O	H37Rv				VERO	MIC	resazurin	3.13 µg/mL
O=C(CCN1CCCCC1)c1ccccc1	H37Rv					MIC		>100 µg/mL
COc1cc2c(cc1Oc1ccc(OC)c3c1CC1c4c(cc(OC)c(OC)c4-3)CCN1C)CC1c3c(cc(OC)c(OC)c3-2)CCN1C	EMB-R					MIC		12.5 µg/mL
CCOC(=O)c1ccc2c(c1)nc(-c1ccc(N3CCOCC3)cc1)n2CCN1CCCC1=O	H37Rv					EC90	resazurin / fluorescence	>100 µM
Cc1ccc(Sc2nc(Cl)nc3nc[nH]c23)cc1	H37Rv	6.25 µg/mL				inhibition		0%
Nc1ccc(C(=O)O)c(O)c1	7800	1.56 µM				inhibition		100%
N[C@@H]1CN(c2c(F)cc3c(=O)c(C(=O)O)cn([C@@H]4C[C@@H]4F)c3c2Cl)CC12CC2	Clinical strain		Gyrase Asp656Tyr/Asn538Asp			MIC	resazurin	0.25 µg/mL
Cc1ccc(-c2ccccc2)n1-c1ccc(C(=O)O)cc1	H37Rv					MIC		>100 µg/mL
CO[C@H]1/C=C/O[C@@]2(C)Oc3c(C)c(O)c4c(O)c(c(/C=N/N5CCN(C)CC5)c(O)c4c3C2=O)NC(=O)/C(C)=C\C=C\[C@H](C)[C@H](O)[C@@H](C)[C@@H](O)[C@@H](C)[C@H](OC(C)=O)[C@@H]1C	41494					MIC		≥2 µg/mL
NNC(=O)c1ccncc1	XDR-164					MIC	resazurin	4 µg/mL
C=Cc1cnc(NC(C)=O)c(C#N)n1	H37Rv	12.5 µg/mL				inhibition	BACTEC	0%
Cc1cc(C)c(/C(Cl)=C/C(=O)O)c(C)c1C	H37Rv					MIC		>100 µg/mL
CCOC(=O)c1ccc2nc(-c3ccc4c(c3)OCO4)[nH]c2c1	H37Rv					EC90	resazurin / fluorescence	>100 µM
NCCCN1c2ccccc2Sc2ccccc21	XDR-164					MIC	resazurin	32 µg/mL
Nc1ccc(S(=O)(=O)c2ccccc2Cl)cc1	H37Rv					MIC		>100 µg/mL
Cc1ccc(Cn2nnc(-c3cc([N+](=O)[O-])cc([N+](=O)[O-])c3)n2)cc1	Praha 4			21 d		MIC		0.125 µM
O=C1N(c2nncs2)CCN1[N+](=O)[O-]	RMP-R					MIC		3.1 µg/mL
O=[N+]([O-])c1cc(-c2nnn(Cc3cc(F)cc(F)c3)n2)cc([N+](=O)[O-])c1	My 331/88			14 d		MIC		0.5 µM
Cc1ccc(C(=O)CCC(=O)NC[C@H]2CN(c3ccc(-n4cncn4)c(F)c3)C(=O)O2)c(C)c1	ATCC 27294					MIC		1 µg/mL
Nc1cnc2ccccc2c1C(=O)O	H37Rv					MIC		25 µg/mL
Clc1nc(Sc2ccc3ccccc3n2)c2[nH]cnc2n1.O	H37Rv					MIC90		>6.25 µg/mL
COc1ccccc1NC(=O)OCC[NH+]1CCCC1	My 331/88					MIC		>1000 µM
CCOC(=O)C1=C(C)N(Cc2ccccc2)C2(O)C1=CC(=O)C(Cl)=C2Cl	H37Rv					MIC bound	BACTEC	>6.25 µg/mL
CCN(CC)CCCN.Cl	H37Rv					MIC		>100 µg/mL
O=C1OCc2cccc3c2-c2c1cccc2C(=O)OC3	H37Rv	12.5 µg/mL				inhibition	BACTEC	-14%
Oc1ccc(-c2cc(O)c(-c3ccc(O)cc3)cc2O)cc1	H37Rv					MIC		100 µg/mL
CO[C@H]1/C=C/O[C@@]2(C)Oc3c(C)c(O)c4c(O)c(c(/C=N/N5CCN(C)CC5)c(O)c4c3C2=O)NC(=O)/C(C)=C\C=C\[C@H](C)[C@H](O)[C@@H](C)[C@@H](O)[C@@H](C)[C@H](OC(C)=O)[C@@H]1C	Clinical isolate 3					MIC		0.1 µg/mL
CC[C@@H](CO)NCCN[C@@H](CC)CO	H37Rv					MIC	resazurin / fluorescence	>100 µM
O=C(/C=C/C(=O)c1ccccc1)NC[C@H]1CN(c2ccc(N3CCOCC3)c(F)c2)C(=O)O1	ATCC 27294					MIC		>16 µg/mL
CC(=O)Nc1ccc(N=Nc2ccc(C(=O)O)cc2)cc1	H37Rv					MIC		>100 µg/mL
C[C@@H]1CC[C@H]2O[C@]23C(=O)O[C@H]2OC(C)(C)[C@H]([C@@H]2O)[C@@]13C	H37Rv	12.5 µg/mL				inhibition	BACTEC	-1%
O=C(O)c1ccccc1C(=O)c1ccc(Br)cc1	H37Rv					MIC		50 µg/mL
O=c1nc(SCc2cccc(Br)c2)c2[nH]cnc2[nH]1	H37Rv					MIC90		>6.25 µg/mL
COc1cc2c3cc1OCc1c(O)c(OC)cc4c1[C@H](Cc1ccc(cc1)Oc1cc(ccc1O)C[C@H]3N(C)CC2)N(C)CC4	H37Rv	12.8 µg/mL				inhibition	BACTEC	22%
COC(=O)c1c(O)cc(C)cc1O	H37Rv					MIC		>100 µg/mL

The last 5 rows once more:

compound | strain or isolate | tested at | mutations | setting | cell line | read-out | read by | value
C[C@@H]1CC[C@H]2O[C@]23C(=O)O[C@H]2OC(C)(C)[C@H]([C@@H]2O)[C@@]13C | H37Rv | 12.5 µg/mL |  |  |  | inhibition | BACTEC | -1%
O=C(O)c1ccccc1C(=O)c1ccc(Br)cc1 | H37Rv |  |  |  |  | MIC |  | 50 µg/mL
O=c1nc(SCc2cccc(Br)c2)c2[nH]cnc2[nH]1 | H37Rv |  |  |  |  | MIC90 |  | >6.25 µg/mL
COc1cc2c3cc1OCc1c(O)c(OC)cc4c1[C@H](Cc1ccc(cc1)Oc1cc(ccc1O)C[C@H]3N(C)CC2)N(C)CC4 | H37Rv | 12.8 µg/mL |  |  |  | inhibition | BACTEC | 22%
COC(=O)c1c(O)cc(C)cc1O | H37Rv |  |  |  |  | MIC |  | >100 µg/mL